Reference: patent USRE46376 (Wyeth LLC, dated 2017)

How the values were obtained:
[1] = molecular target: L44905-86-06 Triple mutant toxin B (SEQ ID NO: 6), Rxn3, 10° C., day 1 (Clostridium difficile (based on strain …))
[2] = molecular target: L44905-86-13 Triple mutant toxin B (SEQ ID NO: 6), Rxn3, 25° C., day 5 (Clostridium difficile (based on strain …))
[3] = molecular target: L44905-86-16 Triple mutant toxin B (SEQ ID NO: 6), Rxn2, 10° C., day 7 (Clostridium difficile (based on strain …))
[4] = molecular target: L44905-86-11 Triple mutant toxin B (SEQ ID NO: 6), Rxn2, 25° C., day 5 (Clostridium difficile (based on strain …))
[5] = molecular target: L44905-86-07 Triple mutant toxin B (SEQ ID NO: 6), Rxn3, 25° C., day 1 (Clostridium difficile (based on strain …))
[6] = molecular target: L44905-86-18 Triple mutant toxin B (SEQ ID NO: 6), Rxn3, 10° C., day 7 (Clostridium difficile (based on strain …))
[7] = molecular target: L44905-86-17 Triple mutant toxin B (SEQ ID NO: 6), Rxn2, 25° C., day 7 (Clostridium difficile (based on strain …))
[8] = molecular target: L44905-86-02 Triple mutant toxin B (SEQ ID NO: 6), Rxn1, 10° C., day 1 (Clostridium difficile (based on strain …))
[9] = molecular target: L44905-86-12 Triple mutant toxin B (SEQ ID NO: 6), Rxn3, 10° C., day 5 (Clostridium difficile (based on strain …))
[10] = molecular target: L44905-86-10 Triple mutant toxin B (SEQ ID NO: 6), Rxn2, 10° C., day 5 (Clostridium difficile (based on strain …))
[11] = molecular target: L44905-86-14 Triple mutant toxin B (SEQ ID NO: 6), Rxn1, 10° C., day 7 (Clostridium difficile (based on strain …))
[12] = molecular target: L44905-86-03 Triple mutant toxin B (SEQ ID NO: 6), Rxn1, 25° C., day 1 (Clostridium difficile (based on strain …))
[13] = molecular target: L44905-86-19 Triple mutant toxin B (SEQ ID NO: 6), Rxn3, 25° C., day 7 (Clostridium difficile (based on strain …))
[14] = molecular target: L44905-86-15 Triple mutant toxin B (SEQ ID NO: 6), Rxn1, 25° C., day 7 (Clostridium difficile (based on strain …))
[15] = molecular target: L44905-86-09 Triple mutant toxin B (SEQ ID NO: 6), Rxn1, 25° C., day 5 (Clostridium difficile (based on strain …))
[16] = molecular target: L44905-86-08 Triple mutant toxin B (SEQ ID NO: 6), Rxn1, 10° C., day 5 (Clostridium difficile (based on strain …))
[17] = molecular target: L44905-86-05 Triple mutant toxin B (SEQ ID NO: 6), Rxn2, 25° C., day 1 (Clostridium difficile (based on strain …))

Measured: binding result

B1: B8-26 mAb (C. difficile TcdB neutralizing antibody) (antibody, V domains shown)
VH: QVQLQQPGAELVKPGAPVKLSCKASGYSFTSYWMNWVKQRPGRGLEWIGRIDPSNSEIYYNQKFKDKATLTVDKSSSTAYIQLSSLTSEDSAVYYCASGHYGSIFAYWGQGTTLTVSS
VL: VQITQSPSYLAASPGETITINCRASKSISKYLAWYQEKPGKTNKLLLYSGSTLQSGIPSRFSGSRSGTDFTLIISSLEPEDSAMYYCQQHNEYPLTFGAGTKLELKR
binds: all assays above

B2: B59-3 mAb (C. difficile TcdB neutralizing antibody) (antibody, V domains shown)
VH: QVQLQQPGAELVKPGASVKLSCKASGYTFTSYWMHWVKQRPGQGLEWIGVINPSNGRSTYSEKFKTTATVTVDKSSSTAYMQLSILTSEDSAVYYCARAYYSTSYYAMDYWGQGTSVTVSS
VL: VLMTQSPLSLPVSLGDQASISCRSSQNIVHSNGNTYLEWYLQKPGQSPKLLIYKVSNRFSGVPDRFSGSGSGTYFTLKISRVEAEDLGVYYCFQGSHFPFTFGTGTKLEIKR
binds: all assays above
